How the values were obtained:
[1] = test system: SK-BR-3 cells; test: Cell killing (MTS cell viability) assay; format: cell-based, human
[2] = test system: HeLa cells; test: Cell killing (MTS cell viability) assay; format: cell-based, human; details: +300 nM Trastuzumab-SO1861 (fixed, Table A7)
[3] = test system: JIMT-1 cells; test: Cell killing (MTS cell viability) assay; format: cell-based, human
[4] = test system: tumor; test: In vivo mouse tumor models, ADC with free saponin; details: free saponin given separately, various routes, time points and doses
[5] = test system: MDA-MB-468 cells; test: Cell killing (MTS cell viability) assay; format: cell-based, human; details: +1388 nM Cetuximab-SO1861 (fixed)
[6] = test system: A431 cells; test: Cell killing (MTS cell viability) assay; format: cell-based, human
[7] = test system: A2058 cells; test: Cell killing (MTS cell viability) assay; format: cell-based, human; details: +1500 nM SO1861 (unconjugated)
[8] = +[…] trastuzumab-(Cys-L-SO1861)^4 (fixed)

For “cetuximab-saporin: monoclonal antibody recognizing and binding EGFR, conjugated to the protein toxin saporin”, the IC50 ([1]; +[…] trastuzumab (fixed)) was over 4 nM, the IC50 [1, 8] was 0.001 nM and the IC50 ([1]; toxin or toxin conjugate titrated alone (no SO1861)) was over 4 nM. It also gave an IC50 [2] of 0.05 nM, an IC50 ([3]; +300 nM Trastuzumab-SO1861 (fixed, Table A7)) of 0.09 nM and an IC50 [3, 8] of 0.08 nM.
In the case of “cetuximabdianthin: ADC tested in in vivo tumor models with free SO1861”, the “anti-tumor activity of ADC administered with free SO1861” value [4] is reported as “did not result in any desired anti-tumor activity”.
“Trastuzumab-Dianthin: trastuzumab-protein toxin conjugate, DAR 1.0” was tested, and the IC50 [5] was 0.5 nM, the IC50 ([6]; +1388 nM Cetuximab-SO1861 (fixed)) was 0.03 nM and the IC50 ([6]; +1500 nM SO1861 (unconjugated)) was 0.06 nM. For the same substance, the IC50 [7] was 0.005 nM.
